{"source": "the supplement of paper PMC9931576", "binders": {"B1": {"name": "BD57-037 (protein)", "chain 1": "QGQLVQSGSELQKPGASVRVSCKASGFTLTSYAINWVRQAPGQGLEWMGWINTNTGNPTYAQGFTGRFVFSLDTSVSTANLQISSLKSEDTAVYYCARVGRYSISWLDDAFDIWGQGTMVTVSS", "chain 2": "DIVMTQSPDSLAVSLGERATINCKSSHSVLYTSDNKNFLAWYQQKPGQPPKLLIYWASTRESGVPDRFSGSGSGTDFTLTISSLQAEDVAVYYCQQYYSTPLTFGGGTKVEIK"}, "B2": {"name": "BD57-038 (protein)", "chain 1": "QMQLVQSGPEVKKPGTSVKVSCKASGFTFSTSAVQWVRQARGQRLEWIGWLVVGSGNTDYAQKFQERVTMTRDESTGTAYMELSSLRSEDTAVYYCAAPNCNRTTCHDGFDIWGQGTVVSVSS", "chain 2": "EIVLTQSPGTLSLSPGERATLSCRASQSVSSNYLAWYQQNPGQAPRVLIYGASSRASGIPDRFSGSGSGTDFTLTISRLEPEDFAMYYCQQYGRSPWTFGQGTKVEIK"}, "B3": {"name": "BD57-043 (protein)", "chain 1": "QVQLVQSGAEVKKPGSSVKVSCKASGGTFSSYAINWVRQAPGQGLEWMGRIISMFDISNYAQNFQGRVTITADKSTSTAYMELNSLRSEDTAVYYCATTKFFYETGVGYYFEYWGQGTLVTVSS", "chain 2": "EIVLTQSPGTLSLSPGERATLSCRASQNLSSNYLAWYQQKPGQAPRLLIYGASSRATGIPDRFSGSGSGTDFILTISRLEPEDFAVYYCQQYHTSRTFGQGTKVEIK"}, "B4": {"name": "BD57-046 (protein)", "chain 1": "QVPVVESGGGVVKPGRSLRLSCAPSGFTFSSYSMHWVRQAPGKGLEWVAVISYDETVKYYADSVKGRFTISRDNSKNTLYLQMNSLRPEDTAVYYCARGGYEIYLFDGLDVWGQGTTVTVSS", "chain 2": "DIQMTQSPSSLSASVGDSVSLRCRASHSISRYLNWYQQRPGRAPKLLIYSASSLQSGVPSRFSGSGSGTDFTLTISSLQPEDFATYYCQHSYGNPPYTFGQGTKLEIK"}, "B5": {"name": "BD57-058 (protein)", "chain 1": "QVQLVQSGAEVKKPGSSVRVSCKASGGTLSSYAISWVRQAPGQGLEWMGGIIPMYGTANYAQRFQGRITITADESTSTAYMQLSSLRSEDTAVYYCARDLAVSSGRLSFYYYMDVWGKGTTVTVSS", "chain 2": "QTVVTQEPSFSVSPGGTVTLTCALSSGSVSTSYFPSWYQQTPGQAPRTLIYSTNTRSSGVPDRFSGSILGNKAALTITGAQAHDESDYYCVLYMDSGIVLFGGGTKLTVL"}, "B6": {"name": "BD57-062 (protein)", "chain 1": "QMQLVQSGPEVKKPGTSVKVSCKASGFTFTTSAVQWVRQTRGQRLEWMGWIVVASGETDYAQRFQERVTITRDLSTSTAYMELSSLRSEDTSVFYCATNSCSRSTCYDGFDIWGQGTMVTVSS", "chain 2": "EIVLTQSPGTLSLSPGERATLSCRASQSVRSSYLAWYQQKPGQAPRLLIYGASSRATGIPDRFSGSGSETDFTLTISRLEPEDFAMYYCQQYDSPPPWTFGQGTKVEIK"}}, "note": "Human monoclonal antibodies against the spike receptor-binding domain (heavy:light variable regions). IC50 against pseudoviruses bearing the spike of naturally observed variants; lower = stronger; >10 µg/ml means not reached at the top dose. No active / inactive call. The stated detection limit is 0.0005 µg/ml; values near or below 0.001 µg/ml lie at the floor of the assay."}
{"target": "SARS-CoV-2 Omicron BA.1 spike pseudovirus", "assay": "pseudovirus neutralization IC50; higher = weaker neutralization", "procedure": "(§1)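 Single-round VSV luciferase pseudovirus mixed with antibody dilutions for 1 h and put on Huh-7 cells for about a day; IC50 from the dose curve.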", "units": {"pseudovirus neutralization IC50": "ng/mL"}}
{"binder": "B1", "pseudovirus neutralization IC50": 4.38}
{"binder": "B2", "pseudovirus neutralization IC50": 2.68}
{"binder": "B3", "pseudovirus neutralization IC50": 2.43}
{"binder": "B4", "pseudovirus neutralization IC50": 16.7}
{"binder": "B5", "pseudovirus neutralization IC50": 56.9}
{"binder": "B6", "pseudovirus neutralization IC50": 3.06}
{"target": "SARS-CoV-2 Omicron BA.2 spike pseudovirus", "assay": "pseudovirus neutralization IC50; higher = weaker neutralization", "procedure": "as §1", "units": {"pseudovirus neutralization IC50": "ng/mL"}}
{"binder": "B1", "pseudovirus neutralization IC50": 9.31}
{"binder": "B2", "pseudovirus neutralization IC50": 1.57}
{"binder": "B3", "pseudovirus neutralization IC50": 2.3}
{"binder": "B4", "pseudovirus neutralization IC50": 14.8}
{"binder": "B5", "pseudovirus neutralization IC50": 93.8}
{"binder": "B6", "pseudovirus neutralization IC50": 2.15}
{"target": "SARS-CoV-2 Omicron BA.2.75 spike pseudovirus", "assay": "pseudovirus neutralization IC50; higher = weaker neutralization", "procedure": "as §1", "units": {"pseudovirus neutralization IC50": "ng/mL"}}
{"binder": "B1", "pseudovirus neutralization IC50": 136}
{"binder": "B2", "pseudovirus neutralization IC50": 2.99}
{"binder": "B3", "pseudovirus neutralization IC50": 2.16}
{"binder": "B4", "pseudovirus neutralization IC50": 14.2}
{"binder": "B5", "pseudovirus neutralization IC50": 25.2}
{"binder": "B6", "pseudovirus neutralization IC50": 1.39}
{"target": "SARS-CoV-2 Omicron BA.5 spike pseudovirus", "assay": "pseudovirus neutralization IC50; higher = weaker neutralization", "procedure": "as §1", "units": {"pseudovirus neutralization IC50": "µg/mL"}}
{"binder": "B1", "pseudovirus neutralization IC50": 0.0392}
{"binder": "B2", "pseudovirus neutralization IC50": 2.67}
{"binder": "B3", "pseudovirus neutralization IC50": "> 10"}
{"binder": "B4", "pseudovirus neutralization IC50": "> 10"}
{"binder": "B5", "pseudovirus neutralization IC50": 0.0688}
{"binder": "B6", "pseudovirus neutralization IC50": 1.27}
{"target": "SARS-CoV-2 Omicron BQ.1.1 spike pseudovirus", "assay": "pseudovirus neutralization IC50; higher = weaker neutralization", "procedure": "as §1", "units": {"pseudovirus neutralization IC50": "µg/mL"}}
{"binder": "B1", "pseudovirus neutralization IC50": "> 10"}
{"binder": "B2", "pseudovirus neutralization IC50": 7.41}
{"binder": "B3", "pseudovirus neutralization IC50": "> 10"}
{"binder": "B4", "pseudovirus neutralization IC50": "> 10"}
{"binder": "B5", "pseudovirus neutralization IC50": "> 10"}
{"binder": "B6", "pseudovirus neutralization IC50": "> 10"}
{"target": "SARS-CoV-2 Omicron XBB spike pseudovirus", "assay": "pseudovirus neutralization IC50; higher = weaker neutralization", "procedure": "as §1", "units": {"pseudovirus neutralization IC50": "µg/mL"}}
{"binder": "B1", "pseudovirus neutralization IC50": "> 10"}
{"binder": "B2", "pseudovirus neutralization IC50": "> 10"}
{"binder": "B3", "pseudovirus neutralization IC50": "> 10"}
{"binder": "B4", "pseudovirus neutralization IC50": "> 10"}
{"binder": "B5", "pseudovirus neutralization IC50": "> 10"}
{"binder": "B6", "pseudovirus neutralization IC50": "> 10"}
{"target": "SARS-CoV-2 early D614G spike pseudovirus", "assay": "pseudovirus neutralization IC50; higher = weaker neutralization", "procedure": "as §1", "units": {"pseudovirus neutralization IC50": "ng/mL"}}
{"binder": "B1", "pseudovirus neutralization IC50": 6.52}
{"binder": "B2", "pseudovirus neutralization IC50": 3.68}
{"binder": "B3", "pseudovirus neutralization IC50": 1.48}
{"binder": "B4", "pseudovirus neutralization IC50": 7.62}
{"binder": "B5", "pseudovirus neutralization IC50": 61.8}
{"binder": "B6", "pseudovirus neutralization IC50": 5.82}
